Experimental data: PMC4439126, “The Myelin and Lymphocyte Protein MAL Is Required for Binding and Activity of Clostridium perfringens ε-Toxin” (PLoS Pathogens, 2015)

Target: the molecule itself
Experiment: Western blot of SDS-resistant oligomer

B1: Clostridium perfringens ε-toxin, activated (ETX) (natural protein)
chain: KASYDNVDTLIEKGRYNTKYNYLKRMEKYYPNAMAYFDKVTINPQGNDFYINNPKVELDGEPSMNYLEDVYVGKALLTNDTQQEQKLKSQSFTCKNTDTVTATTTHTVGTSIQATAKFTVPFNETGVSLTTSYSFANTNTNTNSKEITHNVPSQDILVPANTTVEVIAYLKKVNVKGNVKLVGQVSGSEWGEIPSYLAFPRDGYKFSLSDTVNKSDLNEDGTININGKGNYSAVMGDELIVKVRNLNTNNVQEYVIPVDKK
- stoichiometry N: 7
